Reference: patent US20040197338A1, “Respiratory syncytial virus” (priority 2001, published 2004)

How the values were obtained:
Assay in all cases: peptide scanning ELISA, peptide coated, P^His detected with anti-His antibody (FIG. 3)
[1] = target: peptide N8 (respiratory syncytial virus, A2 strain)
[2] = target: peptide N11 (respiratory syncytial virus, A2 strain)
[3] = target: peptide N4 (respiratory syncytial virus, A2 strain)
[4] = target: peptide N17 (respiratory syncytial virus, A2 strain)

Measured: OD405

P^His (recombinant RSV A2 phosphoprotein (P) with a Histidine tag at its amino terminus, expressed from pETP in E. coli) (a stretch of the chain, sequence left out)
> 0.2 OD405: all assays above
